Results of unrelated studies side by side (data: NIAID ChemDB).

All rows: tests in culture; organism: Mycobacterium tuberculosis

ECn: concentration that inhibits the pathogen or its effect by n%. Neighbouring rows are from separate reports. A number after MIC or MFC names an inhibition level or a share of isolates. Blank or dashed fields: not listed here. MIC bound comes from a single tested concentration. Percent inhibition refers to the dose given; in toxicity tests it is the harm to the cells.

SMILES	strain	mutations	read by	measure	tested at	result
CCCOc1cc2oc3cc(O)c(CCC(C)C)c(O)c3c(=O)c2c(CCC(C)C)c1OC	H37Ra	-	resazurin	MIC	-	0.78 µg/mL
CCn1cc(C(=O)O)c(=O)c2cc(F)c(N3CCN(Cn4c(O)c(N=NC(N)=S)c5cc(Br)ccc54)CC3)cc21	H37Rv	-	BACTEC	EC50	-	<12.5 µg/mL
Cc1[nH]nc(-c2cccnc2)c1N=NN1CCC(C(N)=O)CC1	H37Rv	-	resazurin	MIC bound	-	<6.25 µg/mL
O=C1NC(=S)N/C1=C/c1ccc(Cl)cc1	H37Rv	-	BACTEC	inhibition	6.25 µg/mL	86%
O=c1c2ccccc2sc2c(CO)ccc(NCCN3CCCCC3)c12	H37Rv	-	BACTEC	inhibition	12.5 µg/mL	99%
CC(C)Oc1ccc(-c2ccc(Nc3ncnc4cc(F)ccc34)cc2)cc1	H37Rv	-	luminescence	MIC50	-	>10 µM
O=C1NC(=S)N/C1=C/c1cccc2ccccc12	H37Rv	-	BACTEC	EC50	-	>6.25 µg/mL
Fc1ccc(N2CCN(c3ccc(Nc4ncnc5ccccc45)cc3)CC2)cc1	H37Rv	-	luminescence	MIC50	-	>50 µM
O=C1NC(=S)N/C1=C/c1ccc(Cl)c(Cl)c1	H37Rv	-	BACTEC	EC50	-	<6.25 µg/mL
CC1COc2c(N3CCN(C)CC3)c(F)cc3c(=O)c(C(=O)O)cn1c23	ATCC 27294	-	broth dilution	MIC80	-	0.7 µM
O=C1NC(=S)N/C1=C/c1cccc(Cl)c1Cl	H37Rv	-	BACTEC	inhibition	6.25 µg/mL	10%
NNC(=O)c1ccncc1	Ravenel #226	-	-	MIC	-	<0.5 µg/mL
C=CC1(C)CCC2C(=CCC3C2(C)CC(O)C(O)C3(C)COC2OC(CO)C(O)C(O)C2O)C1	H37Rv	-	BACTEC	MIC bound	-	>12.5 µg/mL
O=C(N/N=C/c1ccc([N+](=O)[O-])o1)c1ccc(F)cc1	H37Rv	-	-	EC50	-	<6.25 µg/mL
O=C(CC(=O)c1ccccc1NC1=Cc2ccccc2C(=O)C1=O)C(=O)NC1=C(Cl)C(=O)c2ccccc2C1=O	H37Rv	-	BACTEC	inhibition	12.5 µg/mL	87%
NNC(=O)c1ccncc1	H37Ra-lux	-	luminescence	EC50	-	0.11 µM
Fc1ccc2c(NCCc3ccc(OC(F)(F)F)cc3)ncnc2c1	H37Rv	-	luminescence	MIC50	-	>20 µM
CC[C@@H](CO)NCCN[C@@H](CC)CO	12119	Ofloxacin-resistant	broth dilution	MIC80	-	4.9 µM
N#C/C(=C1\Sc2c(nc[nH]c2=O)N1c1ccccc1)c1nc2ccccc2[nH]1	H37Rv	-	resazurin	inhibition	6.25 µg/mL	27%
CCN(CC)CCOc1ccc(NC(=S)Nc2ccc(OCC(C)C)cc2)cc1	H37RV #80	-	-	MIC	-	16.6 µg/mL
COc1cc2oc3cc(O)c(CCC(C)C)c(O)c3c(=O)c2c(CCC(C)C)c1OC	M8	-	resazurin	MIC	-	0.78 µg/mL
FC(F)(F)c1cccc(Oc2ccc(Nc3ncnc4ccsc34)cc2)c1	H37Rv	-	luminescence	MIC50	-	>50 µM
CCOc1ccc(NC(=S)Nc2ccc(OCC(C)C)cc2)cc1	H37RV #164	-	-	MIC	-	2 µg/mL
Cc1cc(=O)oc2cc(N)ccc12	H37Rv	-	resazurin	MBC	-	>1500 µg/mL
Fc1cccc(CNCC2CCCC(CNCc3cccc(F)c3)C2)c1	H37Rv	-	-	inhibition	20 µM	0%
CCCCOc1cc2oc3cc(OCCCC)c(OC)c(CCC(C)C)c3c(=O)c2c(O)c1CCC(C)C	H37Ra	-	resazurin	MIC	-	>200 µg/mL
C=CCSCC1Nc2cc(Cl)c(S(N)(=O)=O)cc2S(=O)(=O)N1C	H37Rv	-	resazurin	MIC bound	-	>6.25 µg/mL
COc1ccc2c(Nc3ccc(Oc4ccc(C(F)(F)F)cc4)cc3)ncnc2c1	H37Rv	-	luminescence	MIC50	-	>20 µM
CCCCCCCCS(=O)(=O)CC(N)=O	OT2724	-	-	MIC	-	≤25 µg/mL
CCCCCCCCCCC[C@H](CC(=O)[C@@H](CC(C)C)NC=O)CC1OC(=O)[C@H]1CCCCCC	-	-	-	MIC99	-	20 µg/mL
O=C1NC(SSC2=NNC3(C(=O)N2)c2ccccc2-c2ccccc23)=NNC12c1ccccc1-c1ccccc12	H37Rv	-	BACTEC	MIC bound	-	>12.5 µg/mL
COc1ccc(-c2oc3cc(OC)cc(O)c3c(=O)c2OC)cc1	H37Rv	-	BACTEC	EC50	-	>100 µg/mL
Cc1cn(C[C@H]2CN(c3ccc(N4CCN(C(=O)CNC(=O)c5cc([N+](=O)[O-])cc([N+](=O)[O-])c5)CC4)c(F)c3)C(=O)O2)nn1	H37Rv	-	visual reading	MIC	-	≤0.1 µM
COc1cc(/C=N/NC(=O)c2ccc(F)cc2)ccc1O	H37Rv	-	-	EC50	-	>6.25 µg/mL
Cc1ccccc1CNCC1CCCC(CNCc2ccccc2C)C1	H37Rv	-	-	inhibition	20 µM	0%
CCCCCCCCCC(=O)N[C@H]1[C@H](Oc2c3cc4cc2Oc2ccc(cc2Cl)[C@@H](O[C@@H]2O[C@H](CO)[C@@H](O)[C@H](O)[C@H]2NC(C)=O)[C@@H]2NC(=O)[C@H](NC(=O)[C@@H]4NC(=O)[C@H]4NC(=O)[C@@H](Cc5ccc(c(Cl)c5)O3)NC(=O)[C@H](N)c3ccc(O)c(c3)Oc3cc(O)cc4c3)c3ccc(O)c(c3)-c3c(O[C@H]4O[C@H](CO)[C@@H](O)[C@H](O)[C@@H]4O)cc(O)cc3[C@H](C(=O)O)NC2=O)O[C@H](CO)[C@@H](O)[C@@H]1O	L1909	-	-	MIC	-	>64 µg/mL
COc1cc(/C=C/C2=[N+](C)c3ccccc3C2(C)C)ccc1O	H37Rv	-	BACTEC	inhibition	6.25 µg/mL	0%
NNC(=O)c1ccncc1	M27	MDR	resazurin	MIC	-	2 µg/mL
Cc1c(C2CC(=O)NC2=O)c2ccccc2n1C	H37Rv	-	BACTEC	inhibition	12.5 µg/mL	14%
FC(F)(F)c1ccc(Oc2ccc(Nc3ncnc4nc[nH]c34)cc2)cc1	H37Rv	-	luminescence	MIC50	-	>20 µM
C[C@@H]1CN(c2c(F)c(N)c3c(=O)c(C(=O)O)cn(C4CC4)c3c2F)C[C@H](C)N1	23 strains (rifampicin-resistant)	-	-	MIC90	-	3.13 µg/mL
O=C(O)c1ccc(-c2c3ccc(=O)cc-3oc3cc(O)ccc23)c(C(=O)O)c1	H37Rv	-	BACTEC	inhibition	12.5 µg/mL	-3%
FC(F)(F)c1cccc(Oc2ccc(Nc3ncnc4ccccc34)cc2)n1	H37Rv	-	luminescence	MIC50	-	>20 µM
O=C(O)c1nc(Cl)c(Cl)[nH]c1=O	H37Rv	-	BACTEC	MIC	-	≥12.5 µg/mL
CO[C@H]1/C=C/O[C@@]2(C)Oc3c(C)c(O)c4c(O)c(c(/C=N/N5CCN(C)CC5)c(O)c4c3C2=O)NC(=O)/C(C)=C\C=C\[C@H](C)[C@H](O)[C@@H](C)[C@@H](O)[C@@H](C)[C@H](OC(C)=O)[C@@H]1C	-	Bedaquiline-resistant A63P	broth dilution	MIC80	-	0.04 µM
c1ccc2c(NCCN3CCOCC3)ncnc2c1	H37Rv	-	luminescence	MIC50	-	>20 µM
NC(=O)N/N=C/c1ccc([N+](=O)[O-])o1	H37Rv	-	resazurin	MIC bound	-	>6.25 µg/mL
CCn1cc(C(=O)O)c(=O)c2cc(F)c(N3CCN(CN4C(=O)C(=O)c5ccccc54)CC3)cc21	H37Rv	-	BACTEC	EC50	-	<12.5 µg/mL
O=C(NCC(=O)N1CCN(c2ccc(N3C[C@H](Cn4ccnn4)OC3=O)cc2F)CC1)C1=CC=C([N+](=O)[O-])C1	SRI 4000	Ofloxacin-resistant	broth dilution / visual reading	MIC	-	0.03 µM
O=C1NC(=S)N/C1=C/c1ccc2ccccc2c1	H37Rv	-	BACTEC	inhibition	6.25 µg/mL	53%
Fc1ccc2c(Nc3ccc(Br)cn3)ncnc2c1	H37Rv	-	luminescence	MIC50	-	>20 µM
CN1CCN(c2ccc(CNCC3CCCC(CNCc4ccc(N5CCN(C)CC5)cc4)C3)cc2)CC1	H37Rv	-	-	inhibition	20 µM	0%
CCOc1ccc(/C=C2/NC(=S)NC2=O)cc1	H37Rv	-	BACTEC	inhibition	6.25 µg/mL	87%
CC(=O)Oc1cc2oc3cc(=O)/c(=C(\C)O)c(CCC(C)C)c3c(O)c2c(=O)c1CCC(C)C	H37Ra	-	resazurin	MIC	-	3.12 µg/mL
Cc1cc(O)c2c(c1)C(=O)C=CC2=O	H37Rv	-	-	MIC	-	50 µg/mL
CCOc1cc(Cc2cnc(N)nc2N)cc(OCC)c1-n1cccc1	8 strains (isoniazid- rifampin-resistant)	-	-	MIC	-	≥256 µg/mL
FC(F)(F)c1ccc(N2CCCN(c3ccc(Nc4ncnc5ccccc45)cc3)CC2)cc1	H37Rv	-	luminescence	MIC50	-	>50 µM
O=C(N/N=C/c1cccs1)c1ccc([N+](=O)[O-])cc1	H37Rv	-	-	EC50	-	>6.25 µg/mL
COc1cc2c(c3c1/c(=N\N(C)C)c1ccccc1n3C)C=CC(C)(C)O2	H37Rv	-	BACTEC	MIC	-	≥12.5 µg/mL
Fc1ccc2c(Nc3ccc(Oc4ccc(OC(F)(F)F)cc4)cc3)ncnc2c1	H37Rv	-	luminescence	MIC50	-	>20 µM
C/C(=N\Nc1n[nH]c(=S)n1N)c1c(O)cc(C)oc1=O	H37Rv	-	BACTEC	inhibition	12.5 µg/mL	-1%
CO[C@H]1/C=C/O[C@@]2(C)Oc3c(C)c(O)c4c(=O)c(c5oc6cc(N7CCN(CC(C)C)CC7)cc(=O)c6nc5c4c3=C2O)NC(=O)/C(C)=C\C=C\[C@H](C)[C@H](O)[C@@H](C)[C@@H](O)[C@@H](C)[C@H](OC(C)=O)[C@@H]1C	23 strains (rifampicin-resistant)	-	-	MIC50	-	1.56 µg/mL
CCn1cc(C(=O)O)c(=O)c2cc(F)c(N3CCN(Cn4c(O)c(N=NC(N)=O)c5ccccc54)CC3)cc21	H37Rv	-	BACTEC	EC50	-	<12.5 µg/mL
COC(=O)C1=CO[C@@H](C)[C@H]2CN3CCc4c([nH]c5ccccc45)[C@@H]3C[C@H]12	H37Rv	-	BACTEC	inhibition	12.8 µg/mL	-5%
C=CCOc1ccc(/C=C2/NC(=S)NC2=O)cc1	H37Rv	-	BACTEC	inhibition	6.25 µg/mL	93%
O=C(N/N=C/c1ccc(Cl)cc1)c1ccc(F)cc1	H37Rv	-	-	EC50	-	>6.25 µg/mL
O=C1NC(=S)N/C1=C/c1ccc(-c2ccccc2)cc1	H37Rv	-	BACTEC	inhibition	6.25 µg/mL	97%
COc1c(OCc2ccccc2)cc2oc3cc(O)c(CCC(C)C)c(O)c3c(=O)c2c1CCC(C)C	H37Ra	-	resazurin	MIC	-	6.25 µg/mL
COC(=O)c1ccc(/C=C2/NC(=S)NC2=O)cc1	H37Rv	-	BACTEC	EC50	-	>6.25 µg/mL
Fc1ccc(CNCC2CCCC(CNCc3ccc(F)cc3)C2)cc1	H37Rv	-	-	inhibition	20 µM	0%
O=C(O)CN1N=NC2C(=O)NNC(=O)C21	H37Rv	-	BACTEC	MIC bound	-	>12.5 µg/mL
FC(F)(F)c1cccc(CCNc2ncnc3ccsc23)c1	H37Rv	-	luminescence	MIC50	-	>50 µM
CCn1cc(C(=O)O)c(=O)c2cc(F)c(N3CCN(C)CC3)cc21	55 isolates (RMP INH-R)	-	-	MIC90	-	16 µg/mL
C=CCOc1cc2oc3cc(O)c(CCC(C)C)c(O)c3c(=O)c2c(CCC(C)C)c1OC	M-4	-	resazurin	MIC	-	3.12 µg/mL
FS(F)(F)(F)(F)c1ccc(CCNc2ncnc3ccsc23)cc1	H37Rv	-	luminescence	MIC50	-	>50 µM
CCCC1SCC(=O)N1c1nncs1	H37Rv	-	BACTEC	MIC bound	-	>12.5 µg/mL
FC(F)(F)c1cccc(-c2ccc(Nc3ncnc4ccccc34)cc2)c1	H37Rv	-	luminescence	MIC50	-	>50 µM
CC(C)CC1N=C(NN=C2CCCCC2)SP1(=O)NNc1ncccn1	H37Rv	-	BACTEC	inhibition	12.5 µg/mL	0%
FC(F)(F)Oc1ccc(Nc2ncnc3ccccc23)cc1	H37Rv	-	luminescence	MIC50	-	>50 µM
NNC(=O)c1ccncc1	H37Rv	-	resazurin	MIC	-	30 µg/mL
Cn1c(=O)c2n[se]nc2n(C)c1=O	H37Rv	-	BACTEC	MIC bound	-	>12.5 µg/mL
CCOc1cc2oc3cc(O)c(CCC(C)C)c(O)c3c(=O)c2c(CCC(C)C)c1OC	H37Rv	-	resazurin	MIC	-	1.56 µg/mL
Cc1[nH]c2ccc(N(C)C)cc2c(=O)c1CN(C)C	H37Rv	-	BACTEC	inhibition	12.5 µg/mL	2%
Fc1cc(F)cc(CNCC2CCCC(CNCc3cc(F)cc(F)c3)C2)c1	H37Rv	-	-	inhibition	20 µM	0%

The first 5 rows once more:

SMILES,strain,mutations,read by,measure,tested at,result
CCCOc1cc2oc3cc(O)c(CCC(C)C)c(O)c3c(=O)c2c(CCC(C)C)c1OC,H37Ra,-,resazurin,MIC,-,0.78 µg/mL
CCn1cc(C(=O)O)c(=O)c2cc(F)c(N3CCN(Cn4c(O)c(N=NC(N)=S)c5cc(Br)ccc54)CC3)cc21,H37Rv,-,BACTEC,EC50,-,<12.5 µg/mL
Cc1[nH]nc(-c2cccnc2)c1N=NN1CCC(C(N)=O)CC1,H37Rv,-,resazurin,MIC bound,-,<6.25 µg/mL
O=C1NC(=S)N/C1=C/c1ccc(Cl)cc1,H37Rv,-,BACTEC,inhibition,6.25 µg/mL,86%
O=c1c2ccccc2sc2c(CO)ccc(NCCN3CCCCC3)c12,H37Rv,-,BACTEC,inhibition,12.5 µg/mL,99%